Results of unrelated studies side by side (data: NIAID ChemDB).

All rows: tests in culture; species: HIV-1; measure: EC50

ECn is the concentration giving n% inhibition of infection, replication or growth.

structure | strain | mutations | cell line | read by | conditions | value
C[C@@H]1CN(C(=O)c2ccccc2)CCN1C(=O)C(=O)c1c[nH]c2c(NC(=O)NCCOCCOCCNC(=O)c3cccc(B(O)O)c3)cccc12 |  |  | HeLa | luciferase / reporter gene |  | <1 µM
CC(C)[C@H](NC(=O)OCc1ccccc1)C(=O)N[C@@H](Cc1ccccc1)[C@@H](O)[C@@H](NCc1ccc(Br)cc1)C(=O)N[C@H](C(=O)NCc1nc2ccccc2[nH]1)C(C)C | IIIB |  | HuT-78 + HUT 78 | MTT / p24 |  | 0.025 µM
C[C@@H](O)C1=C[C@@H](n2cnc3c(N)ncnc32)[C@H](O)[C@@H]1O |  |  | HeLa CD4+/TAT+ + HeLa | β-galactosidase |  | 3.5 µM
CC(C)[C@H](NC(=O)[C@H](NCc1ccc(Cl)cc1)[C@H](O)[C@H](Cc1ccccc1)NC(=O)[C@@H](NC(=O)OCc1ccccc1)C(C)(C)C)C(=O)NCc1nc2ccccc2[nH]1 | IIIB |  | HuT-78 + HUT 78 | MTT / p24 |  | 0.0203 µM
C=C(C)[C@@H]1CC[C@]2(C(=O)NCCCCCCCC(=O)N[C@@H](CC(C)C)[C@@H](O)CC(=O)O)CC[C@]3(C)[C@H](CC[C@@H]4[C@@]5(C)CC[C@H](O)C(C)(C)[C@@H]5CC[C@]43C)[C@@H]12 | LN7 (H91L) |  | HeLa P4 + HeLa | syncytia |  | <10 µM
Cc1cc(S(N)(=O)=O)ccc1NC(=O)COc1ccc(Cl)cc1C(=O)c1cc(F)cc(C(F)(F)F)c1 | HXB2 | RT-K103N | HeLa + HELA CD4+ | β-galactosidase |  | <0.01 µM
C[C@H](NC(=O)[C@@H]1CCCN1C(=O)[C@@H](NC(=O)[C@@H](NC(=O)[C@H](CC(=O)O)NC(=O)[C@H](CO)NC(=O)[C@@H](N)CO)[C@@H](C)O)[C@@H](C)O)C(=O)O | JR-CSF |  | PBMC (PHA stimulated) + PBMC | p24 | 7 d | >0.1 µM
CC(C)[C@H](NC(=O)CCc1nc2ccccc2[nH]1)C(=O)N[C@@H](Cc1ccccc1)[C@@H](O)[C@@H](NCc1ccccc1)C(=O)N[C@H](C(=O)NCc1ccccc1)C(C)C | IIIB |  | HuT-78 + HUT 78 | MTT / p24 |  | 0.092 µM
COCCOc1cc(Cl)ccc1CNC(=O)C[C@@]12CC[C@]3(C)[C@H](CC[C@@H]4[C@@]5(C)CC[C@H](OC(=O)[C@H]6C[C@@H](C(=O)O)C6(C)C)C(C)(C)[C@@H]5CC[C@]43C)C1=C(C(C)C)C(=O)C2 | 92HT599 |  | MT-2 | p24 / ELISA |  | <1 µM
CC(C)[C@H](NC(=O)OCc1ccccc1)C(=O)N[C@@H](Cc1ccccc1)[C@@H](O)[C@@H](NCc1ccccc1)C(=O)N[C@H](C(=O)NCc1nc2ccccc2[nH]1)C(C)C | IIIB |  | HuT-78 + HUT 78 | MTT / p24 |  | 0.0647 µM
Cc1cc(S(N)(=O)=O)ccc1NC(=O)COc1ccc(Cl)cc1C(=O)c1cccc(C#N)c1 | HXB2 | RT-K103N | HeLa + HELA CD4+ | β-galactosidase |  | <0.01 µM
CC(C)C1=C2[C@H]3CC[C@@H]4[C@@]5(C)CC[C@H](OC(=O)[C@H]6C[C@@H](C(=O)O)C6(C)C)C(C)(C)[C@@H]5CC[C@@]4(C)[C@]3(C)CC[C@@]2(CC(=O)NCc2ccc(S(C)(=O)=O)cc2)CC1=O | 92HT599 |  | MT-2 | p24 / ELISA |  | <1 µM
COCC1OC(=O)C12N(C)C(=O)C(C)C2(O)C(CC(C)C(O)/C=C/C=C/CNC(=O)C(C)(C)C(O)\C(C)=C/C=C\C=C\Cc1cnc(C)o1)OC |  |  | U-937 | RT activity |  | <10 µg/mL
C/C1=C\C=C\C2(C)C=C(CO)C(C)CC23OC([O-])C(C3=O)C(O)/C=C/C2(C)C=C(C=O)C(C)CC23OC([O-])C(C3=O)C(O)/C(C)=C/C=C/C2C=C(CO)C(C)CC23OC([O-])C(C3=O)C(O)/C=C/C2(C)C=C(C=O)C(C)CC23OC([O-])C(C3=O)C1O | IIIB |  | MOLT-4/(MOLT-4/1(IIIB) + MOLT-4 | syncytia |  | >100 µg/mL
c1ccc2nc3ccccc3cc2c1 | Latently infected cell |  | ACH2 | MTT |  | >50 µM
Nc1ncnc2c1ncn2[C@@H]1CC[C@@H](O)[C@H]1O |  |  | HeLa CD4+/TAT+ + HeLa | β-galactosidase |  | 1.3 µM
CC(=O)Nc1ccc(F)c2c(C(=O)C(=O)N3CCC(=C(C#N)c4ccncc4)CC3)c[nH]c12 |  |  | HeLa | luciferase / reporter gene |  | <1 µM
Cc1c(OCC2CCC2)c2cc(F)ccc2[nH]c1=O | NNRTI-resistant (RT V106A Y181C) | RT-V106A Y181C | HeLa + HeLa-MAGI | β-galactosidase |  | >2 µM
CC(C)[C@H](NC(=O)[C@H](NCc1ccccc1)[C@H](O)[C@H](Cc1ccccc1)NC(=O)[C@@H](NC(=O)OCc1ccccc1)C(C)(C)C)C(=O)NCc1ccccc1 | IIIB |  | HuT-78 + HUT 78 | MTT / p24 |  | 0.145 µM
Cc1cc(S(N)(=O)=O)ccc1NC(=O)COc1ccc(Cl)cc1C(=O)c1cc(F)cc(F)c1 | HXB2 (RT-K103N G190A) Recombinant | RT-K103N G190A | HeLa + HELA CD4+ | β-galactosidase |  | 0.011–0.1 µM
CCNC(=NCCCN(C)C)Nc1cccc2c(C(=O)C(=O)N3CCN(C(=O)c4ccccc4)C[C@H]3C)c[nH]c12 |  |  | HeLa | luciferase / reporter gene |  | <1 µM
C#C[C@@H](O)C1=C[C@@H](n2cnc3c(N)ncnc32)[C@H](O)[C@@H]1O |  |  | HeLa CD4+/TAT+ + HeLa | β-galactosidase |  | 38 µM
CC(C)C1=C2[C@H]3CC[C@@H]4[C@@]5(C)CC[C@H](OC(=O)[C@H]6C[C@@H](C(=O)O)C6(C)C)C(C)(C)[C@@H]5CC[C@@]4(C)[C@]3(C)CC[C@@]2([C@@H](O)CNC(=O)[C@@H]2CCCCN2)CC1=O | 92HT599 |  | MT-2 | p24 / ELISA |  | <1 µM
CC[C@]1(CO)O[C@@H](n2cnc3c(N)ncnc32)C[C@@H]1O |  | AZT-R (delta)Env | HOS | luciferase |  | >0.869 µM
CC(C)C1=C2[C@H]3CC[C@@H]4[C@@]5(C)CC[C@H](OC(=O)[C@H]6C[C@@H](C(=O)O)C6(C)C)C(C)(C)[C@@H]5CC[C@@]4(C)[C@]3(C)CC[C@@]2([C@@H](O)CNC(=O)c2ccc(N3CCN(C)CC3)cc2)CC1=O | 92HT599 |  | MT-2 | p24 / ELISA |  | <1 µM
C=C(C)[C@@H]1CC[C@]2(C(=O)NCCCCCCCCC(=O)N[C@H](CCC(N)=O)C(=O)OC)CC[C@]3(C)[C@H](CC[C@@H]4[C@@]5(C)CC[C@H](OC(=O)CC(C)(C)C(=O)O)C(C)(C)[C@@H]5CC[C@]43C)[C@@H]12 | NL4-3 | T371delta |  | absorbance |  | 0.067 µM
CC(C)C1=C2[C@H]3CC[C@@H]4[C@@]5(C)CC[C@H](OC(=O)[C@H]6C[C@@H](C(=O)O)C6(C)C)C(C)(C)[C@@H]5CC[C@@]4(C)[C@]3(C)CC[C@@]2([C@@H](O)CNC[C@H]2CCCCN2)CC1=O | 92HT599 |  | MT-2 | p24 / ELISA |  | <1 µM
C[C@H]1[C@H](O)[C@@H](C)/C=C/C=C/C=C/C=C/C=C/C=C/C=C/[C@H](O[C@@H]2O[C@H](C)[C@@H](O)[C@H](N)[C@@H]2O)C[C@@H]2O[C@](O)(C[C@@H](O)C[C@@H](O)CC[C@H](O)[C@@H](O)C[C@@H](O)CC(=O)O[C@H]1C)C[C@H](O)[C@H]2C(=O)O | YBF30 GROUP N R5 (NSI) |  | PBMC | p24 / RT activity |  | 0.7 µM
Cc1cc2[nH]cnc2cc1NC(=O)COc1ccc(Cl)cc1C(=O)c1cc(F)cc(C(F)(F)F)c1 | HXB2 | RT-G190A | HeLa + HELA CD4+ | β-galactosidase |  | <0.01 µM
CC(C)C1=C2[C@H]3CC[C@@H]4[C@@]5(C)CC[C@H](OC(=O)[C@H]6C[C@@H](C(=O)O)C6(C)C)C(C)(C)[C@@H]5CC[C@@]4(C)[C@]3(C)CC[C@@]2([C@@H](O)CNCC2CCC2)CC1=O | 92HT599 |  | MT-2 | p24 / ELISA |  | <1 µM
Cc1cc(S(N)(=O)=O)ccc1NC(=O)COc1ccc(Cl)cc1C(=O)c1cccc(C#N)n1 | HXB2 | RT-V106I Y181C | HeLa + HELA CD4+ | β-galactosidase |  | <0.01 µM
CC(C)C1=C2[C@H]3CC[C@@H]4[C@@]5(C)CC[C@H](OC(=O)[C@H]6C[C@@H](C(=O)O)C6(C)C)C(C)(C)[C@@H]5CC[C@@]4(C)[C@]3(C)CC[C@@]2(CC(=O)NCc2ccc(N3CCC(O)CC3)cc2)CC1=O | 92HT599 |  | MT-2 | p24 / ELISA |  | <1 µM
CCNC(=O)NC(=O)COC(=O)c1c2c(nc3ccccc13)/C(=C/c1cccc([N+](=O)[O-])c1)CCC2 |  |  | HEK 293 | β-galactosidase / GFP / reporter gene |  | 3 µM
C[C@@H]1CN(C(=O)c2ccccc2)CCN1C(=O)C(=O)c1c[nH]c2c(NC(=O)Nc3cccc(B(O)O)c3)cccc12 |  |  | HeLa | luciferase / reporter gene |  | <1 µM
CN1CC(C(=O)N(CCCN2CCC(Cc3ccccc3)CC2)c2ccc(Cl)c(Cl)c2)CC1=O | JR-FL R5 |  | MOLT-4-CCR5+ + MOLT-4 | luciferase |  | 0.44 µM
CC(=O)Nc1ccc(F)c2c(C(=O)C(=O)N3CCC(=C(C#N)c4cccnc4)CC3)c[nH]c12 |  |  | HeLa | luciferase / reporter gene |  | <1 µM
Cc1cc(C#N)cc(C(=O)c2cc(Cl)ccc2OCC(=O)Nc2ccc(OCCCN3CC=CC3)cc2C)c1 | HXB2 | RT-K103N | HeLa + HELA CD4+ | β-galactosidase |  | <0.01 µM
OC[C@@H]1CC[C@H](n2cnc3cccnc32)O1 | GB8 |  | JM | p24 |  | >1000 µM
CCc1cc(C#N)cc(C(=O)c2cc(Cl)ccc2OCC(=O)Nc2ccc(S(N)(=O)=O)cc2C)c1 | HXB2 | RT-V106I | HeLa + HELA CD4+ | β-galactosidase |  | <0.01 µM
Nc1ccn([C@H]2CC[C@@H](CO)O2)c(=O)n1 | RF |  | MOLT-4/8 + MOLT-4 | MTT / p24 |  | 0.048 µM
Nc1cccc2cc3ccccc3nc12 | Latently infected cell |  | ACH2 | MTT |  | >50 µM
Cc1ccc(C(=O)NC(C)(C)CNCC[C@@]23CC[C@]4(C)[C@H](CC[C@@H]5[C@@]6(C)CC[C@H](OC(=O)[C@H]7C[C@@H](C(=O)O)C7(C)C)C(C)(C)[C@@H]6CC[C@]54C)C2=C(C(C)C)C(=O)C3)cn1 | 92HT599 |  | MT-2 | p24 / ELISA |  | <1 µM
COc1ccc(/C=C2\CCc3c2nc2ccccc2c3C(=O)OC(C)C(=O)NC(N)=O)cc1OC |  |  | HEK 293 | β-galactosidase / GFP / reporter gene |  | 1 µM
CC(C)C1=C2[C@H]3CC[C@@H]4[C@@]5(C)CC[C@H](OC(=O)[C@H]6C[C@@H](C(=O)O)C6(C)C)C(C)(C)[C@@H]5CC[C@@]4(C)[C@]3(C)CC[C@@]2(CCNC[C@H](NC(=O)c2ccc(Cl)cc2)C(C)O)CC1=O | 92HT599 |  | MT-2 | p24 / ELISA |  | <1 µM
C[C@@H]1CN(C(=O)c2ccccc2)CCN1C(=O)C(=O)c1c[nH]c2c(NC(=O)Nc3ccc(C(=O)C(F)(F)F)cc3)cccc12 |  |  | HeLa | luciferase / reporter gene |  | <1 µM

For reference, 6 entries again:

structure	strain	mutations	cell line	read by	conditions	value
C=C(C)[C@@H]1CC[C@]2(C(=O)NCCCCCCCCC(=O)N[C@H](CCC(N)=O)C(=O)OC)CC[C@]3(C)[C@H](CC[C@@H]4[C@@]5(C)CC[C@H](OC(=O)CC(C)(C)C(=O)O)C(C)(C)[C@@H]5CC[C@]43C)[C@@H]12	NL4-3	T371delta		absorbance		0.067 µM
COCCOc1cc(Cl)ccc1CNC(=O)C[C@@]12CC[C@]3(C)[C@H](CC[C@@H]4[C@@]5(C)CC[C@H](OC(=O)[C@H]6C[C@@H](C(=O)O)C6(C)C)C(C)(C)[C@@H]5CC[C@]43C)C1=C(C(C)C)C(=O)C2	92HT599		MT-2	p24 / ELISA		<1 µM
CN1CC(C(=O)N(CCCN2CCC(Cc3ccccc3)CC2)c2ccc(Cl)c(Cl)c2)CC1=O	JR-FL R5		MOLT-4-CCR5+ + MOLT-4	luciferase		0.44 µM
CC(C)[C@H](NC(=O)CCc1nc2ccccc2[nH]1)C(=O)N[C@@H](Cc1ccccc1)[C@@H](O)[C@@H](NCc1ccccc1)C(=O)N[C@H](C(=O)NCc1ccccc1)C(C)C	IIIB		HuT-78 + HUT 78	MTT / p24		0.092 µM
C[C@@H]1CN(C(=O)c2ccccc2)CCN1C(=O)C(=O)c1c[nH]c2c(NC(=O)Nc3cccc(B(O)O)c3)cccc12			HeLa	luciferase / reporter gene		<1 µM
Cc1cc(C#N)cc(C(=O)c2cc(Cl)ccc2OCC(=O)Nc2ccc(OCCCN3CC=CC3)cc2C)c1	HXB2	RT-K103N	HeLa + HELA CD4+	β-galactosidase		<0.01 µM

Two numbers with a dash give a range or band. An empty or dashed field is not shown. Neighbouring rows are from separate reports.